Results of unrelated studies side by side (data: NIAID ChemDB).

All rows: whole-cell or culture tests; species: Human herpesvirus 6; measure: EC50

ECn is the concentration giving n% inhibition of infection, replication or growth. Neighbouring rows are from separate reports. Blank or dashed fields: not listed here.

structure	strain	cells	read by	result
C=CCNc1nc(N)nc2c1ncn2/C=C1/C[C@@H]1CO	TYPE 6A	HSB-2	flow cytometry	8.3 µM
Nc1nc2c(ncn2C[C@]2(CO)C[C@H]2CO)c(=O)[nH]1	GS (subtype 6A)	HSB-2		3.45 µg/mL
Cc1c(S(=O)(=O)c2ccc(Cl)cc2)c(NC(=O)C(F)(F)F)n(Cc2ccccc2)c1C	GS (TYPE 6A)	HSB-2	hybridisation	12 µg/mL
CCCCCOc1nc(N)nc2c1ncn2/C=C1/C[C@@H]1CO	TYPE 6B	HSB-2	flow cytometry	1.2 µM
OCC1OC(n2c(Br)nc3cc(Cl)c(Cl)cc32)C(O)C1O	6a	HSB-2	hybridisation	31 µM
NC(=O)c1c(Cl)c(-c2cccnc2)n2c1CCCC2	TYPE B (Z29)	MOLT-3	hybridisation	>100 µM
Nc1nc2c(ncn2COC(CO)CO)c(=O)[nH]1	GS (subtype 6A)	HSB-2	cytopathic effect	10 µg/mL
Nc1ncc2c(ncn2COC(CO)CO)n1		Human T-lymphoblasts		0.0066 µM
N#CC1C(c2ccc(Cl)cc2)Nc2ccccc2S1(=O)=O	Z29 (TYPE 6B)	MOLT-3	hybridisation	1.9 µg/mL
Nc1nc2c(ncn2CCC(CO)CO)c(=O)[nH]1	GS (subtype 6A)	HSB-2		85 µg/mL
C=CCOc1nc(N)nc2c1ncn2/C=C1/C[C@@H]1CO	TYPE 6A	HSB-2	flow cytometry	3.8 µM
Nc1ccn(C[C@@H](CO)OCP(=O)(O)O)c(=O)n1	Z-29 (subtype 6B)	CBL	flow cytometry	>1.6 µM
Nc1nc2c(ncn2COC(CO)CO)c(=O)[nH]1		Human T-lymphoblasts		7.2 µM
Nc1nc2c(ncn2C[C@]2(CO)C[C@H]2CO)c(=O)[nH]1	TYPE 6B	MOLT-3		3.5 µg/mL
CCCCCSc1nc(N)nc2c1ncn2/C=C1/C[C@@H]1CO	TYPE 6B	HSB-2	flow cytometry	3.4 µM
C[C@H]1O[C@@H](n2c(NC3CC3)nc3cc(Cl)c(Cl)cc32)[C@H](O)[C@@H]1O	6a	HSB-2	hybridisation	>100 µM
O=c1[nH]c(=O)n([C@H]2C[C@H](O)[C@@H](CO)O2)cc1/C=C/Br		Human T-lymphoblasts	cytopathic effect	>1 µM
Nc1nc2c(ncn2/C=C2/CC2(CO)CO)c(=O)[nH]1	TYPE 6B	HSB-2	flow cytometry	0.6 µM
Cc1c(S(=O)(=O)c2ccc(Cl)cc2)c(NC(=O)C(F)(F)F)n(Cc2ccc(Cl)cc2)c1C	Z29 (TYPE 6B)	MOLT-3	hybridisation	>10 µg/mL
Nc1nc2c(ncn2[C@@H]2C[C@H](CO)[C@H]2CO)c(=O)[nH]1	Z-29 (subtype 6B)	MOLT-3	cytopathic effect	2.36 µg/mL
Nc1ccn(/C=C2/CC2(CO)CO)c(=O)n1	TYPE 6A	HSB-2	flow cytometry	17.8 µM
NC1=NC2C(C=CN2CC(CO)CCO)C(=O)N1		Human T-lymphoblasts	cytopathic effect	≥50 µM
CC(C)Nc1nc2cc(Cl)c(Cl)cc2n1[C@@H]1OC[C@@H](O)[C@H]1O	6a	HSB-2	hybridisation	>20 µM
OC[C@H]1O[C@@H](n2c(Br)nc3cc(Cl)c(Cl)cc32)[C@H](O)[C@@H]1O	Z-29 (subtype 6B)	CBL	flow cytometry	125 µM
CC(C)Nc1nc2cc(Cl)c(Cl)cc2n1[C@@H]1O[C@@H](C)[C@@H](O)[C@H]1O	6B	MOLT-3	hybridisation	>20 µM
Nc1nc(OCC2CC2)c2ncn(/C=C3/C[C@@H]3CO)c2n1	TYPE 6B	HSB-2	flow cytometry	1.2 µM
O[C@@H]1[C@H](O)[C@H](O)CO[C@H]1n1c(Br)nc2cc(Cl)c(Cl)cc21	GS (subtype 6A)	SupT1	flow cytometry	>125 µM

The first 3 rows once more:

C=CCNc1nc(N)nc2c1ncn2/C=C1/C[C@@H]1CO ; strain: TYPE 6A ; cells: HSB-2 ; read by: flow cytometry ; result: 8.3 µM
Nc1nc2c(ncn2C[C@]2(CO)C[C@H]2CO)c(=O)[nH]1 ; strain: GS (subtype 6A) ; cells: HSB-2 ; result: 3.45 µg/mL
Cc1c(S(=O)(=O)c2ccc(Cl)cc2)c(NC(=O)C(F)(F)F)n(Cc2ccccc2)c1C ; strain: GS (TYPE 6A) ; cells: HSB-2 ; read by: hybridisation ; result: 12 µg/mL